Series [1] has as its system Human immunodeficiency virus 1. As to the kind of experiment: Antiviral activity against HIV-1 infected in human MT4 cells assessed as reduction in virus-indued cytopathogenicity incubated for 5 days by MTT assay.
A short description of series [2]: Selectivity index, ratio of CC50 for human CEM-SS cells to EC50 for antiviral activity against HIV-1 infected in human CEM-SS cells.
The nature of series [3]: Selectivity index, ratio of CC50 for human MT4 cells to EC50 for antiviral activity against HIV-1 infected in human MT4 cells.
The next series relates to MT4. As to the kind of experiment: Cytotoxicity against human MT4 cells assessed as reduction in cell viability incubated for 5 days by MTT assay. The series is classed as cell-based. The settings on record: mt4, 120 h.
Series [4] relates to Human immunodeficiency virus 1. As to the kind of experiment: Antiviral activity against HIV-1 infected in human CEM-SS cells assessed as reduction in viral multiplication by measuring decrease in reverse transcriptase activity incubated for 5 days.
Another series deals with CEM-SS. Nature of the series: Cytotoxicity against human CEM-SS cells assessed as reduction in cell viability incubated for 5 days by MTT assay. The series is classed as cell-based. The settings on record: 120 h.
The test system of the next series is CEM-TK(-). Nature of the series: Cytotoxicity against human CEM-TK(-) cells assessed as reduction in cell viability incubated for 5 days by MTT assay. Type of series: cell-based. Particulars: 120 h. On the technique in general: Tetrazolium assays rely on reduction of a dye to a coloured formazan, in cell work by metabolically active cells.

Experimental findings from ChEMBL document CHEMBL4813984, “An original pronucleotide strategy for the simultaneous delivery of two bioactive drugs” (Eur J Med Chem, 2021) are described below.

Consider `CC(C)(C)C(=O)SCCOP(=O)(Nc1ccn([C@H]2CC[C@@H](CO)O2)c(=O)n1)OC[C@@H]1CC[C@H](n2cnc3c(N)ncnc32)O1` (stereo partly drawn), for which the EC50 in series [1] came to 790 nM; in series [4], 40 nM. Moreover, the Ratio CC50/EC50 in series [2] was more than 4000; in series [3], more than 203. The CC50 in the series on MT4 and in the series on CEM-SS was more than 160000 nM in each case.

For the molecule `Cc1cn([C@H]2C[C@H](N=[N+]=[N-])[C@@H](COP(=O)(Nc3ccn([C@H]4CC[C@@H](CO)O4)c(=O)n3)OCCSC(=O)C(C)(C)C)O2)c(=O)[nH]c1=O` (stereo partly drawn), the results for the EC50 in series [1] and in series [4] were 6.5 nM and 0.6 nM, respectively. Also, the Ratio CC50/EC50 in series [2] is more than 580000; in series [3], more than 76900. In addition, the CC50 in the series on MT4 was more than 500000 nM; in the series with CEM-TK(-) it was more than 500000 nM; in the series on CEM-SS, 350000 nM.

What is called EC50 is the concentration needed to bring the measured effect to its halfway point. The CC50 is the concentration at which the toxic effect on the cells reaches its halfway point.
